Compound potency records, mixed from different reports. Data source: NIAID ChemDB in PubChem.

All rows: growth or infection tests; organism: Mycobacterium avium intracellulare

An empty or dashed field is not shown. MIC50, MIC90 and the like: level of inhibition, or share of isolates inhibited. Neighbouring rows are from separate reports.

SMILES	measure	strain or isolate	value
CC/C=C/CCNC(=O)O[C@H]1C(O[C@@H]2[C@@H](C)[C@H](O[C@H]3C[C@@](C)(OC)[C@@H](OC(C)=O)[C@H](C)O3)[C@@H](C)C(=O)O[C@H](CC)[C@@](C)(O)[C@H](O)[C@@H](C)/C(=N/OCCCC3CCCCC3)[C@H](C)CC2(C)O)O[C@H](C)C[C@@H]1N(C)C	MIC	20066	0.2 µg/mL
CN1CCN(c2c(F)cc3c(=O)c(C(=O)O)cn(CCF)c3c2F)CC1	MIC90	-	50 µg/mL
CC[C@H]1OC(=O)[C@H](C)[C@@H](O[C@H]2C[C@@](C)(OC)[C@@H](OC(C)=O)[C@H](C)O2)[C@H](C)[C@@H](OC2O[C@H](C)C[C@H](N(C)C)[C@H]2OC(=O)NCCCCCCCCCCCCCCN(C)C)C(C)(O)C[C@@H](C)/C(=N\OCCCC2CCCCC2)[C@H](C)[C@@H](O)[C@]1(C)O	MIC	20067	0.78 µg/mL
CN[C@@H]1[C@H](O[C@H]2[C@H](O[C@H]3[C@H](O)[C@@H](O)[C@H](N=C(N)N)[C@@H](O)[C@@H]3N=C(N)N)O[C@@H](C)[C@]2(O)C=O)O[C@@H](CO)[C@H](O)[C@H]1O	MIC	N-486 (HIV-)	4 µg/mL
CC(=O)NC[C@H]1CN(c2ccc(N3CCN(c4ccc([N+](=O)[O-])s4)CC3)c(F)c2)C(=O)O1	MIC	540/96	1 µg/mL
CCC(C)C(=O)Oc1ccc(OC)cc1C1OC1C	MBC	ATCC 19709	>20 µg/mL
CC[C@H]1OC(=O)[C@H](C)[C@@H](O[C@H]2C[C@@](C)(OC)[C@@H](O)[C@H](C)O2)[C@H](C)[C@@H](O[C@@H]2O[C@H](C)C[C@H](N(C)C)[C@H]2O)[C@](C)(OC)C[C@@H](C)C(=O)[C@H](C)[C@@H](O)[C@]1(C)O	MIC	N-260	4 µg/mL
CC[C@H]1OC(=O)[C@H](C)[C@@H](OC2C[C@@](C)(OC)[C@@H](O)[C@H](C)O2)[C@H](C)[C@@H](O[C@@H]2O[C@H](C)C[C@H](N(C)C)[C@H]2O)C(C)(O)C[C@@H](C)/C(=N\OCCCOc2ccccc2)[C@H](C)[C@@H](O)[C@]1(C)O	MIC	20066	1.56 µg/mL
CC(C)N=c1cc2n(-c3ccc(Cl)cc3)c3ccccc3nc-2cc1Nc1ccc(Cl)cc1	MIC	97002	1 µg/mL
C[C@@H](O)[C@H]1C(=O)N2C(C(=O)O)=C(SCCN=CN)C[C@H]12	MIC	CIPT 140310019	10 µg/mL
CO[C@H]1/C=C/O[C@@]2(C)Oc3c(C)c(O)c4c(O)c(c5c(c4c3C2=O)NC2(CCN(CC(C)C)CC2)N=5)=NC(=O)/C(C)=C\C=C\[C@H](C)[C@H](O)[C@@H](C)[C@@H](O)[C@@H](C)[C@H](OC(C)=O)[C@@H]1C	MIC	N-897 (HIV-)	0.125 µg/mL
OCCN1CCN(CCC=C2c3ccccc3Sc3ccc(Cl)cc32)CC1	MIC	V 915	12.5 µg/mL
CC[C@H]1OC(=O)[C@H](C)[C@@H](O[C@H]2C[C@@](C)(OC)[C@@H](OC(C)=O)[C@H](C)O2)[C@H](C)[C@@H](OC2O[C@H](C)C[C@H](N(C)C)[C@H]2OC(=O)NC)C(C)(O)C[C@@H](C)/C(=N\OCCCC2CCCCC2)[C@H](C)[C@@H](O)[C@]1(C)O	MIC	20067	1.56 µg/mL
C[C@@H]1CN(c2c(F)c(N)c3c(=O)c(C(=O)O)cn(C4CC4)c3c2F)C[C@H](C)N1	MIC	N-481 (HIV-)	16 µg/mL
CC[C@H]1OC(=O)[C@H](C)[C@@H](O[C@H]2C[C@@](C)(OC)[C@@H](O)[C@H](C)O2)[C@H](C)[C@@H](O[C@@H]2O[C@H](C)C[C@H](N(C)C)[C@H]2O)[C@](C)(OC)C[C@@H](C)C(=O)[C@H](C)[C@@H](O)[C@]1(C)O	MIC	20066	3.13 µg/mL
CO[C@H]1/C=C/O[C@@]2(C)Oc3c(C)c(O)c4c(O)c(c5c(c4c3C2=O)NC2(CCN(CC(C)C)CC2)N=5)=NC(=O)/C(C)=C\C=C\[C@H](C)[C@H](O)[C@@H](C)[C@@H](O)[C@@H](C)[C@H](OC(C)=O)[C@@H]1C	MIC	92	0.125 µg/mL
CO[C@H]1/C=C/O[C@@]2(C)Oc3c(C)c(O)c4c(O)c(c5c(c4c3C2=O)NC2(CCN(CC(C)C)CC2)N=5)=NC(=O)/C(C)=C\C=C\[C@H](C)[C@H](O)[C@@H](C)[C@@H](O)[C@@H](C)[C@H](OC(C)=O)[C@@H]1C	MIC	CIPT 140310023	0.05 µg/mL
CO[C@H]1/C=C/O[C@@]2(C)Oc3c(C)c(O)c4c(=O)c(c5oc6cc(N7CCN(CC(C)C)CC7)cc(=O)c6nc5c4c3=C2O)NC(=O)/C(C)=C\C=C\[C@H](C)[C@H](O)[C@@H](C)[C@@H](O)[C@@H](C)[C@H](OC(C)=O)[C@@H]1C	MIC	N-481 (HIV-)	≤0.0125 µg/mL
CC1(C)S[C@@H]2[C@H](NC(=O)[C@H](C(=O)[O-])c3ccsc3)C(=O)N2[C@H]1C(=O)[O-].[Na+].[Na+]	MIC	CIPT 140310031	25 µg/mL
CN(C)CCCN1c2ccccc2Sc2ccc(Cl)cc21	MIC	R 8588	25 µg/mL
C/C=C(/C)C(=O)Oc1ccc(OC)cc1C1OC1C	MBC	ATCC 19709	>20 µg/mL
CCNC(=O)[C@@H](NC(=O)Cc1ccccc1)[C@@H]1N[C@@H](C(=O)NCCNC(=O)[C@@H]2N[C@@H]([C@H](NC(=O)Cc3ccccc3)C(=O)NCC)SC2(C)C)C(C)(C)S1	MIC	CIPT 140310034	25 µg/mL
CCCCCCCCCCCCCCCCO/N=C1\[C@H](C)CC(C)(O)[C@H](O[C@@H]2O[C@H](C)C[C@H](N(C)C)[C@H]2O)[C@@H](C)[C@H](OC2C[C@@](C)(OC)[C@@H](O)[C@H](C)O2)[C@@H](C)C(=O)O[C@H](CC)[C@@](C)(O)[C@H](O)[C@H]1C	MIC	20066	>50 µg/mL
COc1ccc2c(c1)N(C[C@H](C)CN(C)C)c1ccccc1S2	MIC	T 7360	50 µg/mL
COc1cc(NC(C)CCCN)c2nc(C(C)(C)C)cc(C)c2c1Oc1cccc(C(F)(F)F)c1	MIC	-	5 µg/mL
CCCCNC(=O)O[C@H]1C(O[C@@H]2[C@@H](C)[C@H](O[C@H]3C[C@@](C)(OC)[C@@H](OC(C)=O)[C@H](C)O3)[C@@H](C)C(=O)O[C@H](CC)[C@@](C)(O)[C@H](O)[C@@H](C)/C(=N/OCCCC3CCCCC3)[C@H](C)CC2(C)O)O[C@H](C)C[C@@H]1N(C)C	MIC	20067	0.2 µg/mL
CC[C@H]1OC(=O)[C@H](C)[C@@H](O[C@H]2C[C@@](C)(OC)[C@@H](O)[C@H](C)O2)[C@H](C)[C@@H](O[C@@H]2O[C@H](C)C[C@H](N(C)C)[C@H]2O)[C@](C)(O)C[C@@H](C)/C(=N\OC)[C@H](C)[C@@H](O)[C@]1(C)O	MIC	20066	12.5 µg/mL
OCCN1CCN(CC/C=C2\c3ccccc3Sc3ccc(Cl)cc32)CC1	MIC	E 48067	12.5 µg/mL
CCNC(=O)O[C@H]1C(O[C@@H]2[C@@H](C)[C@H](O[C@H]3C[C@@](C)(OC)[C@@H](OC(C)=O)[C@H](C)O3)[C@@H](C)C(=O)O[C@H](CC)[C@@](C)(O)[C@H](O)[C@@H](C)/C(=N/OCCCC3CCCCC3)[C@H](C)CC2(C)O)O[C@H](C)C[C@@H]1N(C)C	MIC	20066	12.5 µg/mL
C[C@@H]1CN(c2c(F)c(N)c3c(=O)c(C(=O)O)cn(C4CC4)c3c2F)C[C@H](C)N1	MIC50	31 strains	6.25 µg/mL